Results deposited as PubChem BioAssay AID504761 (Drosophila RNAi Screening Center, 2011)
Screen: 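Insect host genes that dengue virus relies on to spread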 (primary screen). Cells: D.Mel-2 cells from Drosophila. Knock-down reagent: long dsRNA against Drosophila genes. Challenge: infection with dengue virus type 2; dose and infection time not stated. Measurement: 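Per well on two replicate plates, imaging gave the percent of cells positive for viral envelope protein, ranked by infection, and a nuclear count of cells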. Scale: infection score: higher = more virus-infected cells; cell count: higher = more cells in the well. Active means: 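Low infection ranks in the two replicates (chance level up to 0.065) followed by a retest with a 1.5-fold or larger significant decrease, p below 0.05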. Meaning of the calls: active = confirmed: knock-down lowers infection; inactive = not picked or not confirmed.
The deposit covers about 22,000 reagents; this is a random part of those that have a named target and a result. In the full data, 116 (0.52%) got an active call. 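Calls depend on retest data that are not deposited; infection was ranked per plate without normalising between plates; the unit of the infection score is not given.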 Raw values are not corrected between plates. Names joined by + are all predicted targets of the reagent. Not given: the amount of reagent, the time to read-out.

How did the screen score p23 (GeneID 41173) [DRSC15158]?
infection score, replicate 1: 12.3; infection score, replicate 2: 31.7; cell count, replicate 1: 2912; cell count, replicate 2: 5664; outcome: inactive

What is on record for p23 (GeneID 41173) [DRSC27806]?
infection score, replicate 1: 10.9; infection score, replicate 2: 13.3; cell count, replicate 1: 6635; cell count, replicate 2: 6417; outcome: inactive

Which result is listed for Aatf (GeneID 33943) [DRSC02131]?
infection score, replicate 1: 14.8; infection score, replicate 2: 8.85; cell count, replicate 1: 4877; cell count, replicate 2: 5749; outcome: inactive

For Aatf (GeneID 33943) [DRSC29405], what does the deposit list?
infection score, replicate 2: 1.1; cell count, replicate 1: 354; cell count, replicate 2: 546; outcome: inactive

What is on record for Tpr2 (GeneID 34984) [DRSC03461]?
infection score, replicate 1: 41.1; infection score, replicate 2: 22.1; cell count, replicate 1: 5604; cell count, replicate 2: 6736; outcome: inactive

What did the screen give for CG32212 + hpRNA:CR33940 [DRSC09618]?
infection score, replicate 1: 1.2; infection score, replicate 2: 1.38; cell count, replicate 1: 6001; cell count, replicate 2: 6613; outcome: inactive

With Pgant35A (GeneID 48775) [DRSC03557], how do the results read?
infection score, replicate 1: 13.9; infection score, replicate 2: 10.4; cell count, replicate 1: 5309; cell count, replicate 2: 6362; outcome: inactive

With Pgant35A (GeneID 48775) [DRSC28249], how do the results read?
infection score, replicate 1: 5.18; infection score, replicate 2: 10.8; cell count, replicate 1: 1660; cell count, replicate 2: 6011; outcome: inactive

With Fa2h (GeneID 35670) [DRSC06608], what was measured?
infection score, replicate 1: 4.67; infection score, replicate 2: 6.96; cell count, replicate 1: 5755; cell count, replicate 2: 6670; outcome: inactive

For Fa2h (GeneID 35670) [DRSC06609], what was measured?
infection score, replicate 1: 16.9; infection score, replicate 2: 10.5; cell count, replicate 1: 6458; cell count, replicate 2: 3174; outcome: inactive

For Schip1 (GeneID 34393) [DRSC02851], what was measured?
infection score, replicate 1: 3.2; infection score, replicate 2: 2; cell count, replicate 1: 5930; cell count, replicate 2: 6346; outcome: inactive

For Schip1 (GeneID 34393) [DRSC28775], what does the deposit list?
infection score, replicate 1: 12.9; infection score, replicate 2: 6.55; cell count, replicate 1: 3180; cell count, replicate 2: 2643; outcome: inactive

For Gr32a (GeneID 34545) [DRSC02400], what does the deposit list?
infection score, replicate 1: 30; infection score, replicate 2: 10.8; cell count, replicate 1: 6226; cell count, replicate 2: 6588; outcome: inactive

Which result is listed for Tao (GeneID 32948) [DRSC19573]?
infection score, replicate 1: 16.6; infection score, replicate 2: 6.57; cell count, replicate 1: 5723; cell count, replicate 2: 5818; outcome: inactive

With Tao (GeneID 32948) [DRSC19574], what was measured?
infection score, replicate 1: 8.22; infection score, replicate 2: 17.5; cell count, replicate 1: 4771; cell count, replicate 2: 4846; outcome: inactive

Which result is listed for Tao (GeneID 32948) [DRSC22639]?
infection score, replicate 1: 4.48; infection score, replicate 2: 22.5; cell count, replicate 1: 6582; cell count, replicate 2: 5051; outcome: inactive

What did the screen give for Tao (GeneID 32948) [DRSC28431]?
infection score, replicate 1: 6.62; infection score, replicate 2: 7.97; cell count, replicate 1: 2733; cell count, replicate 2: 4228; outcome: inactive

How did the screen score CG7402 (GeneID 39994) [DRSC10839]?
infection score, replicate 1: 1.96; infection score, replicate 2: 0.68; cell count, replicate 1: 6632; cell count, replicate 2: 6436; outcome: inactive

How did the screen score Mys45A (GeneID 35925) [DRSC07067]?
infection score, replicate 1: 14.6; infection score, replicate 2: 15.8; cell count, replicate 1: 3724; cell count, replicate 2: 5403; outcome: inactive

For Mys45A (GeneID 35925) [DRSC25852], how do the results read?
infection score, replicate 1: 3.61; infection score, replicate 2: 7.43; cell count, replicate 1: 6100; cell count, replicate 2: 6214; outcome: inactive

With ArfGAP1 (GeneID 39417) [DRSC11173], what was measured?
infection score, replicate 1: 9; infection score, replicate 2: 3.91; cell count, replicate 1: 6146; cell count, replicate 2: 6092; outcome: inactive

2 of these entries, reformatted:
gene,DRSC id,"infection score, replicate 1","infection score, replicate 2","cell count, replicate 1","cell count, replicate 2",outcome
Gr32a (GeneID 34545),DRSC02400,30,10.8,6226,6588,inactive
Tao (GeneID 32948),DRSC19573,16.6,6.57,5723,5818,inactive
